Fitness effects across NS2B and the NS3 protease domain of Zika virus

Values reported by Ni et al. 2025 (doi:10.1038/s41467-025-63602-z).

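Pools of virus carrying all single amino acid changes were selected for growth in Huh-7.5 cells. The effect is the change in frequency of a mutant, normalised to wild type, as a mean of three replicate libraries (two for positions 207-308).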

Protein: NS2B and the protease part of NS3 of Zika virus strain MR766. Positions count along the chain below; NS2B spans 2-131 and NS3 starts at 132.
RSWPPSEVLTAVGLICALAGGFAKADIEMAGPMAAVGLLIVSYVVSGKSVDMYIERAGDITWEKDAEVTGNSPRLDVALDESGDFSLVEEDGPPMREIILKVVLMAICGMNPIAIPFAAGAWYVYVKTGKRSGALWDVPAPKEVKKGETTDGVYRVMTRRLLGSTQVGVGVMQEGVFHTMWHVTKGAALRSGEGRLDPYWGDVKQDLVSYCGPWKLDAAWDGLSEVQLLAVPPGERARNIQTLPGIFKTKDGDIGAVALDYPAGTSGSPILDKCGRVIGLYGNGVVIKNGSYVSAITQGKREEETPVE

The number is log2 of the effect relative to wild type; negative values mean reduced growth, higher values better tolerance. A change reads original residue, position, new residue. All changes here are to phenylalanine. Values above 0 are not proof of better growth: six high scorers were tested one by one, five grew less well than wild type and one about as well. Position 1 still belongs to NS2A. In the paper, -1 or higher counts as tolerated. Positions 1-103, 104-206 and 207-308 were made and measured as separate libraries.

For I98F the result was -5.05. I99F gave -0.64. L100F read 0.11. K101F read -6.83. For V102F the result was 0.32. With V103F the assay gave -0.10. With L104F the assay gave -3.41.

M105F read -5.39. For A106F the result was -1.53. For I107F the result was -2.18. C108F gave -6.57. G109F read -5.57. M110F gave 0.30. N111F gave -1.80.

P112F gave -4.23. With I113F the assay gave -1.43. With A114F the assay gave -0.33. With I115F the assay gave -2.76. P116F read -4.80. A118F read -5.23. A119F gave -5.08.

For G120F the result was -1.06. A121F read -1.49. For W122F the result was -2.19. With Y123F the assay gave -0.17. For V124F the result was -1.00. With Y125F the assay gave -0.90. With V126F the assay gave -1.12.

With K127F the assay gave -5.60. T128F gave -5.66. With G129F the assay gave -5.68. For K130F the result was -5.91. With R131F the assay gave -5.23. For S132F the result was -6.23. G133F read -5.28.

For A134F the result was -5.32. L135F gave -6.18. W136F read -6.78. With D137F the assay gave -6.14. V138F read -5.47. P139F gave -4.78. A140F gave -5.09.

For P141F the result was -4.46. For K142F the result was -3.83. For E143F the result was -0.69. With V144F the assay gave -1.62. With K145F the assay gave -1.78. K146F read -2.17. G147F read -1.60.

For E148F the result was -3.77. With T149F the assay gave -5.15. T150F read -1.96. D151F read -3.14. G152F read -5.83. V153F read -1.12. For Y154F the result was -4.90.

R155F gave -5.49. V156F read -5.63. For M157F the result was -0.64. T158F gave -4.74. For R159F the result was -4.72. With R160F the assay gave -5.50. For L161F the result was -4.92.

L162F gave -2.57. G163F gave -4.56. S164F read -2.79. With T165F the assay gave 1.01.

The opening 4 entries, copied out:

For I98F the result was -5.05.
For I99F the result was -0.64.
For L100F the result was 0.11.
For K101F the result was -6.83.